Construct, isoform or probe ends are uncertain for at least one entry. For part of these data: No signal at the amounts used counts as a negative. For part of these data: Tags and fusion partners may be left off the protein sequences shown.
Key:
[1] = biological target: PhuS H212R (Pseudomonas aeruginosa PAO1) (UniProt O68880); assay: fluorescence anisotropy; settings: holo-PhuS H212R titrated with apo-HemO, 5:1 HemO needed; FA: 20 mM Tris-HCl pH 8.0, 100 mM NaCl, 0.05 mg/ml BSA, 10 nM DNA (Fur: 10 mM bis-Tris borate pH 7.5, 40 mM KCl, 0.1 mM MnSO4, 0.1 mg/ml BSA, 10% glycerol); recombinant protein; label: 5'-6FAM
[2] = test system: HemO (Pseudomonas aeruginosa); assay: EMSA; settings: apo-HemO; EMSA: 100 mM Tris pH 8.0, 500 mM NaCl, 10% glycerol, 10 ng/ml salmon sperm DNA, 37 C, 30 pM DNA; recombinant protein; label: 5'-biotin
[3] = biological target: T1, PhuS (Pseudomonas aeruginosa PAO1) (UniProt O68880); assay: fluorescence anisotropy; settings: apo-PhuS; FA: 20 mM Tris-HCl pH 8.0, 100 mM NaCl, 0.05 mg/ml BSA, 10 nM DNA (Fur: 10 mM bis-Tris borate pH 7.5, 40 mM KCl, 0.1 mM MnSO4, 0.1 mg/ml BSA, 10% glycerol); recombinant protein; label: 5'-6FAM
T1 sequence (looked up, limits assumed): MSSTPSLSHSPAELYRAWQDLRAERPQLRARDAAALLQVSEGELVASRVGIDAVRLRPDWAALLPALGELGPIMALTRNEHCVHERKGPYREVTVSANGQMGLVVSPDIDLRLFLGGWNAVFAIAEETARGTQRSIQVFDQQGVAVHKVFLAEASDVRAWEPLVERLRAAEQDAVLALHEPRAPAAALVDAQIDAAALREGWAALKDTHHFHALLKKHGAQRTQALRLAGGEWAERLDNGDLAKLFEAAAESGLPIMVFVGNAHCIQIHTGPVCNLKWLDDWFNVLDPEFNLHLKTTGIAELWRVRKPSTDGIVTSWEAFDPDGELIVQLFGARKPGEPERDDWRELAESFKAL

## AGCAGAAAAGTTTGGCGAAAGCGTTTGACATGGAAATGAGAATCATTATT (double strand) [prrF1-50 (FAM)]
[1]
  binding result: binds

## AGCAGAAAAGTTTGGCGAAAGCGTTTGACATGGAAATGAGAATCATTATT (double strand) [prrF1-50 (biotin)]
[2]
  binding result: no binding

## GCCTGCGATTCGGCCGGAGACGACCGTTCATCGGCTGGCGATGGAATGAA (double strand) [prrF2-50 (AlgR)]
[3]
  binding result: no binding
